The target of experiment [1] is recombinant RSV complex (Human respiratory syncytial virus A, UniProt P28887). Put plainly: RSV Polymerase Inhibition Assay. To be noted: read-out: IC50 (compound concentration at which the enzyme-catalyzed rate was reduced by 50%), 10 nM recombinant RSV complex, 2 h at 30° C., Tables E, F and G list compounds by IC50 band.
Experiment [2] has as its system Respiratory Syncytial Virus (RSV) long strain. To be noted: read-out: 50% effective concentration (EC50); HEp-2 cells infected with RSV long strain, 5 days, CCK-8 readout; Tables A and B list compounds by EC50 band.
In experiment [3] the test system is RSV replicon.
Where [4] appears, read: read-out: EC50, the concentration of the drug required for reducing RSV replicon RNA by 50%, 395 HeLa or APC126 cells, value given by membership in Table H / Table I.

The chains behind the UniProt entries cited, without tags or fusion partners.
UniProt P28887, whole entry: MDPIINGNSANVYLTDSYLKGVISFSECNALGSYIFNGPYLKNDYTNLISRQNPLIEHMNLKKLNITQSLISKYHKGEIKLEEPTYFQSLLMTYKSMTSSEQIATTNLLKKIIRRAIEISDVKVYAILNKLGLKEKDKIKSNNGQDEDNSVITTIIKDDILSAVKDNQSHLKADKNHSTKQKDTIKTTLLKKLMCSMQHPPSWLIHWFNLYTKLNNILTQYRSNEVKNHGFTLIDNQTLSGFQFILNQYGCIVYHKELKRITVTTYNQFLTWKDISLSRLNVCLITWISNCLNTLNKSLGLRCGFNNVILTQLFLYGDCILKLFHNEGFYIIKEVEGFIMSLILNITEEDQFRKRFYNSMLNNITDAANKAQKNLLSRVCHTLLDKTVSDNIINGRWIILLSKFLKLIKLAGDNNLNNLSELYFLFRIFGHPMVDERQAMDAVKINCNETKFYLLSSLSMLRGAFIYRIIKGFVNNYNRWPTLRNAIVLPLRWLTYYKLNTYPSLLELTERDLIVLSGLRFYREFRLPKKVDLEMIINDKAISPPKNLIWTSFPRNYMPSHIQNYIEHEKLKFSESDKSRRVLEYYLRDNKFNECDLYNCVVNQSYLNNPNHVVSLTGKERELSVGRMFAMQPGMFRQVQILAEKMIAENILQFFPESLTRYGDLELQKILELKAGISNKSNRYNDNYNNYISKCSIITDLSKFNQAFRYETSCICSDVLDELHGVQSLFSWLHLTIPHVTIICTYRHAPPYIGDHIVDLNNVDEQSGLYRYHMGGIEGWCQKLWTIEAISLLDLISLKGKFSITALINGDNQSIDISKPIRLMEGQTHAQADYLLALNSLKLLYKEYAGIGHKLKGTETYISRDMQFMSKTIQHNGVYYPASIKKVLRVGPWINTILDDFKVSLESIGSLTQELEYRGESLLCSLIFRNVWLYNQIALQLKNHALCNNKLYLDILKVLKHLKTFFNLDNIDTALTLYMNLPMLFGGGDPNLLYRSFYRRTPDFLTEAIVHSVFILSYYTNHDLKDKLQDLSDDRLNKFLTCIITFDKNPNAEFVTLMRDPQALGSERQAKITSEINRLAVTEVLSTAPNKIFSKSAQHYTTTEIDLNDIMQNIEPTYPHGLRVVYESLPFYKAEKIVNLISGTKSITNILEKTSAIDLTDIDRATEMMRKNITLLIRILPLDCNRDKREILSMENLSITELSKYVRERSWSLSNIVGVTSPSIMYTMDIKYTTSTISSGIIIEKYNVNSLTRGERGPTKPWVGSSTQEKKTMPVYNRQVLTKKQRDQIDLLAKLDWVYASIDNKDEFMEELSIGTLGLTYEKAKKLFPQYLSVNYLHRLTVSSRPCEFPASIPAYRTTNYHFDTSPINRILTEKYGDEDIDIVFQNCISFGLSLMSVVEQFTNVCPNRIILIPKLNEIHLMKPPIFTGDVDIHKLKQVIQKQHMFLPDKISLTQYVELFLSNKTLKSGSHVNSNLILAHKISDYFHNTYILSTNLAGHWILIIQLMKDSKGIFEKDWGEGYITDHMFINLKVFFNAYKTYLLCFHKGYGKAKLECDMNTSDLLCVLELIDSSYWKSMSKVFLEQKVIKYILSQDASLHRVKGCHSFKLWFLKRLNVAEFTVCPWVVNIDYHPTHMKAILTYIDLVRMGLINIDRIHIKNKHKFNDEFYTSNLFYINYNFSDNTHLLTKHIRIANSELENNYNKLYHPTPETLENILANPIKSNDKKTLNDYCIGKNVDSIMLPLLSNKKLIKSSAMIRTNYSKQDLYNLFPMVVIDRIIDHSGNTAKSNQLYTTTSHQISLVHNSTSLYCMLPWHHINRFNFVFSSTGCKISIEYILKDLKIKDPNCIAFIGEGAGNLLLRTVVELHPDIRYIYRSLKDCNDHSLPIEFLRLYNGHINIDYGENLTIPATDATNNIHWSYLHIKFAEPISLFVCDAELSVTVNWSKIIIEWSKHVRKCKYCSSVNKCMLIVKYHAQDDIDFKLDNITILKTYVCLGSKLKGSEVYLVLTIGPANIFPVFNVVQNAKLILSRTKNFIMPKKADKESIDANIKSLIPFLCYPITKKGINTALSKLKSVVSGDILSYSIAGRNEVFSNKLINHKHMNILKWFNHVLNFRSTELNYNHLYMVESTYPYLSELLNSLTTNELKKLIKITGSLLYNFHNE
UniProt P03421, whole entry partner: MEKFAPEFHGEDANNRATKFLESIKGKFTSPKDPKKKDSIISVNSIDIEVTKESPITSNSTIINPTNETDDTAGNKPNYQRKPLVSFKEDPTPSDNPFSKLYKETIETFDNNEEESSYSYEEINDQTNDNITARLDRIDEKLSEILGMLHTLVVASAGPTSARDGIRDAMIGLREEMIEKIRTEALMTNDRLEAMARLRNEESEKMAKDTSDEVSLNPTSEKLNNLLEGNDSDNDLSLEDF

Structures are written as SMILES. Read-outs that look alike come from different tables or passages of the source.

On to `COc1cc(C(=O)NCC(C)(O)c2ccc(OC)c(-c3ccc(F)c(Br)c3)n2)ccc1OCCF` (single isomer, unassigned) [118b], for which the IC50 in experiment [1] is less than 1000 nM. For the same compound, the EC50 in experiment [2] and in experiment [3] (setting [4]) was less than 1000 nM each time.
In the case of `COc1cc(C(=O)NCC(O)(c2cc3c(c(-c4ccc(F)cc4)n2)OCC3(C)N)C(F)(F)F)ccc1OC1CC1` (single isomer, unassigned) [510], the IC50 in experiment [1] was less than 1000 nM. Further, the EC50 in experiment [2] and in experiment [3] (setting [4]) was less than 1000 nM throughout.
`COc1cc(C(=O)NCC(O)(c2c[nH]nn2)c2ccc(OC)c(-c3ccc(F)c(Cl)c3)n2)ccc1OCCO` (stereo not drawn): in experiment [1], the IC50 is less than 1000 nM.
Still for that read-out and setting: next, `COc1cc(C(=O)NCC(O)(c2cc3c(c(-c4ccc(F)c(Cl)c4)n2)OCC3(C)C)C(F)(F)F)ccc1OC1CC1` (single isomer, unassigned): less than 1000 nM.
On to `COc1cc(C(=O)NCC(O)(c2cc(C(C)(C)N)cc(-c3ccc(F)c(Cl)c3)n2)C(F)(F)F)ccc1OC1CC1` (stereo not drawn), for which, in experiment [1] (tested form: HCl), the IC50 was less than 1000 nM. The EC50 in experiment [3] (read-out: EC50, the concentration of the drug required for reducing RSV replicon RNA by 50%, 395 HeLa or APC126 cells, value given by membership in Table H / Table I, tested form: HCl) is less than 1000 nM.
As to `CCOc1ccc(C(=O)NCC(C)(O)c2ccc(OC)c(-c3c[nH]c4c(F)cccc34)n2)cc1OC` (single isomer, unassigned) [116b], the IC50 in experiment [1] was less than 1000 nM. Also, the EC50 in experiment [2] and in experiment [3] (setting [4]) was less than 1000 nM throughout.
As to `COc1cc(C(=O)NCC(=O)c2cc3c(c(-c4c[nH]c5c(F)cccc45)n2)OCC3(C)C)ccc1OCCO`, in experiment [1], the IC50 is less than 1000 nM. For the same compound, the EC50 in experiment [3] (setting [4]) is less than 1000 nM.
Turning to `COc1cc(C(=O)NCC(C)(O)c2ccc(OC)c(-c3c[nH]c4c(F)cccc34)n2)ccc1OCCF` (stereo not drawn), in experiment [1], the IC50 was less than 1000 nM. Further, the EC50 in experiment [2] and in experiment [3] (setting [4]) was less than 1000 nM throughout.
As for `COc1cc(C(=O)NCC(O)(c2cc3c(c(-c4ccc(F)c(Cl)c4)n2)OCC3(C)C)C(F)(F)F)ccc1CC1CCNC1=O` (stereo not drawn), in experiment [1], the IC50 was less than 1000 nM. Moreover, in experiment [2], the EC50 is less than 1000 nM.
Consider `C#CC(O)(CNC(=O)c1ccc(OCCF)c(OC)c1)c1ccc(OC)c(-c2ccc(F)c(Cl)c2)n1` (single isomer, unassigned) [413], for which, in experiment [1], the IC50 was less than 1000 nM. The EC50 in experiment [2] and in experiment [3] (setting [4]) was less than 1000 nM in each case.
For `COc1cc(C(=O)NCC(C)(O)c2ccc(OC)c(-c3ccc(F)c(Cl)c3)n2)ccc1OC[C@H](C)O` (single isomer, unassigned), in experiment [1], the IC50 was less than 1000 nM. Further, the EC50 in experiment [2] and in experiment [3] (setting [4]) was less than 1000 nM each time.
With `COc1cc(C(=O)NCC(C)(O)c2ccc(OC)c(-c3ccc(F)c(Cl)c3)n2)ccc1OCCO` (single isomer, unassigned) [120b], the IC50 in experiment [1] is less than 1000 nM. Besides, the EC50 in experiment [2] and in experiment [3] (setting [4]) was less than 1000 nM in each case.
On to `COc1cc(C(=O)NCC(C)(O)c2ccc(OC)c(-c3c[nH]c4c(F)cccc34)n2)ccc1OCC(N)=O` (single isomer, unassigned) [421], for which, in experiment [1], the IC50 is less than 1000 nM. In addition, the EC50 in experiment [2] and in experiment [3] (setting [4]) was less than 1000 nM throughout.
Regarding `COc1cc(C(=O)NCC(C)(O)c2ccc(OC)c(-c3c[nH]c4c(F)cccc34)n2)ccc1OCCO` (single isomer, unassigned) [117b], the IC50 in experiment [1] was less than 1000 nM. The EC50 in experiment [2] and in experiment [3] (setting [4]) was less than 1000 nM in each case.
`COc1cc(C(=O)NCC(O)(Cn2cccn2)c2ccc(OC)c(-c3ccc(F)c(Cl)c3)n2)ccc1OCCO` (single isomer, unassigned) [185]: the IC50 in experiment [1] was less than 1000 nM. The EC50 in experiment [2] was less than 1000 nM.
As for `COc1cc(C(=O)NCC(O)(c2cc(C(C)(C)NCC(N)=O)cc(-c3ccc(F)c(Cl)c3)n2)C(F)(F)F)ccc1OC1CC1` (stereo not drawn), the IC50 in experiment [1] is less than 1000 nM. Further, the EC50 in experiment [2] and in experiment [3] (setting [4]) was less than 1000 nM in each case.
On to `COc1cc(C(=O)NCC(O)(c2cc3c(c(-c4ccc(F)cc4)n2)OCC3(C)N)C(F)(F)F)ccc1OC1CC1` (single isomer, unassigned) [511], for which the IC50 in experiment [1] is less than 1000 nM. Further, in experiment [3] (setting [4]), the EC50 is less than 1000 nM.
Turning to `COc1cc(C(=O)NCC(C)(O)c2ccc(OC)c(-c3ccc(F)c(Cl)c3)n2)ccc1OC[C@@H](C)O` (single isomer, unassigned) [415], the IC50 in experiment [1] is less than 1000 nM. Also, the EC50 in experiment [2] and in experiment [3] (setting [4]) was less than 1000 nM in each case.
